Anti-infective test results gathered from many reports (values: NIAID ChemDB through PubChem).

All rows: tests in culture; organism: Herpes simplex virus 2; endpoint: inhibition

For "inactive" no cut-off is given. Lines come from different laboratories, so protocols vary. An empty or dashed field is not shown. Inhibition is in % at the dose shown (toxicity tests: loss of growth or viability).

| smiles | read by | dose | cells | strain | result |
|---|---|---|---|---|---|
| S=C(NCCc1ccccc1)Nc1ccc(Oc2ccc(NC(=S)NCCc3ccccc3)cc2)cc1 | plaque count | 1 µM | VERO |  | <50% |
| O=c1[nH]c(=O)n([C@H]2C[C@H](O)[C@@H](CO)O2)cc1CCCl | cytopathic effect | 3 µg/mL | HEP-2 | K979 | ≥25% |
| O=c1[nH]c(=O)n([C@H]2C[C@H](O)[C@@H](CO)O2)cc1CCBr | cytopathic effect | 100 µg/mL | HEP-2 |  | ≥25% |
| Nc1ncnc2c1ncn2[C@@H]1O[C@H](CO)[C@@H](O)[C@@H]1O | plaque count | 25 µM | VERO | 333 | 21.7% |
| CCCCCCCCCCCCCCCCCC(=O)OCC(CO[C@@H]1O[C@H](CO)[C@@H](O)[C@H](O)[C@H]1O)OC(=O)CCCCCCCCCCC | plaque count | 50 µg/mL | VERO | 186 | inactive |
| O=c1[nH]c(=O)n([C@H]2C[C@H](O)[C@@H](CO)O2)cc1/C=C/C(F)(F)F | plaque count | 10 µM | HELA BU | 333 | 81% |
| NC(=Nc1ccc(Cc2ccc(N=C(N)c3ccccc3)cc2)cc1)c1ccccc1 | plaque count | 10 µM | VERO |  | >90% |
| C/C=C/c1cn([C@H]2C[C@H](O)[C@@H](CO)O2)c(=O)[nH]c1=O | plaque count | 100 µM | VERO | 91074 | 45% |
| CCCCC/C=C\C/C=C\CCCCCCCC(=O)OCC(CO[C@@H]1O[C@H](CO)[C@@H](O)[C@H](O)[C@H]1O)OC(=O)CCCCCCC/C=C\C/C=C\CCCCC | plaque count | 50 µg/mL | VERO | 186 | 50% |
| C=Cc1cn([C@H]2C[C@H](O)[C@@H](CO)O2)c(=O)[nH]c1=O | plaque count | 10 µM | HeLa | 333 | >99% |
| CSC(=NCCc1ccccc1)Nc1ccc(Oc2ccc(/C=C(/NCCc3ccccc3)SC)cc2)cc1 | plaque count | 10 µM | VERO |  | >50% |
| CSc1cnc(=O)n([C@H]2C[C@H](O)[C@@H](CO)O2)c1 | plaque count | 200 µM | HeLa | 333 | 59% |
| C/C=C/c1cn([C@@H]2O[C@H](CO)[C@@H](O)[C@@H]2O)c(=O)[nH]c1=O | plaque count | 250 µM | VERO | 72 | 0% |
| CC12CC[C@H](O)CC1=CCC1C2CCC2(C)C(C(=O)COS(=O)(=O)O)CCC12 | plaque count | 40 µg/mL | VERO | G | 11.4% |
| O=c1[nH]c(=O)n([C@H]2C[C@H](O)[C@@H](CO)O2)cc1CCCl | cytopathic effect | 3 µg/mL | HEP-2 |  | ≥25% |
| Nc1nc(=O)n([C@@H]2O[C@H](CO)[C@@H](O)[C@@H]2F)cc1I | virus yield | 0.5 µM | VERO | G | 97.5% |
| Cc1cn(N2C[C@H](CO)[C@H]2CO)c(=O)[nH]c1=O | plaque count | 10 µg/mL | VERO |  | 0% |
| CC/C=C/C/C=C/C/C=C/CCCCCCCC(=O)OC[C@H](CO[C@@H]1O[C@H](CO)[C@@H](O)[C@H](O)[C@H]1O)OC(=O)CCCCCCC/C=C/C/C=C/C/C=C/CC | plaque count | 50 µg/mL | VERO | 186 | 100% |
| CC(=O)O[C@H]1CC2=CCC3C(CCC4(C)C(C(CCC=C(C)C)COS(=O)(=O)O)CCC34)C2(C)C[C@@H]1OS(=O)(=O)O | plaque count | 10 µg/mL | VERO | G | 12% |
| Nc1nc2c(ncn2COC(CO)CO)c(=O)[nH]1 | plaque count | 2 µM | WI-38 | G | 90% |
| O=c1[nH]c(=O)n([C@H]2C[C@H](O)[C@@H](CO)O2)cc1I | cytopathic effect | 0.3 µg/mL | HEP-2 | K979 | ≥25% |
| O=S(=O)(c1ccc(OCc2ccc(Cl)cc2)cc1)c1ccc(OCc2ccc(Cl)cc2)cc1 | plaque count | 1 µM | VERO |  | >50% |
| CC(C)=CCCC(COS(=O)(=O)O)C1CCC2C3CC=C4C[C@H](O)[C@@H](OS(=O)(=O)O)CC4(C)C3CCC12C | plaque count | 80 µg/mL | VERO | G | 95.5% |
| CCC(=O)C(CCCCCCOc1ccc(OC)cc1Cl)C(=O)CC | plaque count | 3 µg/mL | VERO | 333 | 6% |
| CCCc1cn([C@H]2C[C@H](O)[C@@H](CO)O2)c(=O)[nH]c1=O | plaque count | 10 µM | HELA BU | 333 | 91% |
| Cc1cn([C@@H]2O[C@H](CO)[C@@H](O)[C@@H]2F)c(=O)[nH]c1=O | virus yield | 0.5 µM | VERO | G | 71% |
| CC(C)=CCCC(CO)C1CCC2C3CC=C4C[C@H](O)[C@@H](O)CC4(C)C3CCC12C | plaque count | 80 µg/mL | VERO | G | 79.4% |
| CCCCCCCCCCCCCCCCCCCCCC(=O)OCC(CO[C@@H]1O[C@H](CO)[C@@H](O)[C@H](O)[C@H]1O)OC(=O)CCCCCCCCCCCCC | plaque count | 50 µg/mL | VERO | 186 | 20% |
| CN1C(=O)NC(=O)N([C@H]2C[C@H](O)[C@@H](CO)O2)C1(C)C | plaque count | 50 µM | VERO | 35D | 40% |
| O=C(O)C(O)c1ccccc1 | plaque count | 100 µg/mL | CaSki | G | 100% |
| Nc1ccn([C@H]2O[C@@H](CO)[C@H](O)[C@H]2F)c(=O)n1 | virus yield | 5 µM | VERO | G | 91.1% |
| CCCCCCCC/C=C\CCCCCCCC(=O)OC(COC(=O)CCCCCCCCCCCCCCCCCCCCC)CO[C@@H]1O[C@H](CO)[C@@H](O)[C@H](O)[C@H]1O | plaque count | 50 µg/mL | VERO | 186 | 10% |
| CCCc1cn([C@H]2C[C@H](O)[C@@H](CO)O2)c(=O)[nH]c1=O | plaque count | 25 µM | HeLa | 333 | >99% |
| COC(=O)/C=C/c1cn([C@H]2C[C@H](O)[C@@H](CO)O2)c(=O)[nH]c1=O | cytopathic effect | 30 µg/mL | HEP-2 |  | ≥25% |
| O=c1ccn([C@@H]2O[C@H](CO)[C@@H](O)[C@@H]2F)c(=O)[nH]1 | virus yield | 10 µM | VERO | G | 99.82% |
| O=c1[nH]c(=O)n([C@H]2C[C@H](O)[C@@H](CO)O2)cc1CCO | cytopathic effect | 100 µg/mL | HEP-2 |  | ≥25% |
| Cc1cn([C@@H]2O[C@H](CO)[C@@H](O)[C@@H]2F)c(=O)[nH]c1=O | cytopathic effect | 0.1 µg/mL | HEP-2 | K979 | ≥25% |

The last 5 rows once more:

smiles,read by,dose,cells,strain,result
CCCc1cn([C@H]2C[C@H](O)[C@@H](CO)O2)c(=O)[nH]c1=O,plaque count,25 µM,HeLa,333,>99%
COC(=O)/C=C/c1cn([C@H]2C[C@H](O)[C@@H](CO)O2)c(=O)[nH]c1=O,cytopathic effect,30 µg/mL,HEP-2,,≥25%
O=c1ccn([C@@H]2O[C@H](CO)[C@@H](O)[C@@H]2F)c(=O)[nH]1,virus yield,10 µM,VERO,G,99.82%
O=c1[nH]c(=O)n([C@H]2C[C@H](O)[C@@H](CO)O2)cc1CCO,cytopathic effect,100 µg/mL,HEP-2,,≥25%
Cc1cn([C@@H]2O[C@H](CO)[C@@H](O)[C@@H]2F)c(=O)[nH]c1=O,cytopathic effect,0.1 µg/mL,HEP-2,K979,≥25%